Reference: US8563588B2, “Imidazolone derivatives, method for the preparation thereof and biological applications” (Universite de Rennes 1, priority 2007, dated 2013)

Molecular target: Rat recombinant DYRK1A (Rattus norvegicus, UniProt Q63470)
Experiment: Assaying of the kinase activity of DYRK1A (33P-ATP, myelin basic protein, P81 filter);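 note: GST fusion rat DYRK1A made in E. coli, scintillation counting of label bound to substrate, activity as percent of the inhibitor-free maximum after blank subtraction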
Format: biochemical
Conditions: 15 μM ATP, 30° C., 30 min

Structure (SMILES): CN1C(=O)/C(=C/c2ccc3c(c2)OCO3)N=C1SCCCl [ST381]
- IC50: 0.44 µM
